A mixed list of measured activities; the numbers were collected in NIAID ChemDB.

Shared fields: tests in culture; species: HIV-1; cells: MT-4; endpoint: EC50

Conditions beyond the fields shown may differ between rows. An empty or dashed field is not shown. ECn: concentration that inhibits the pathogen or its effect by n%.

| SMILES | strain | mutations | method | result |
|---|---|---|---|---|
| Cc1ccnc2c1NC(=O)c1cccnc1N2C1CC1 | IIIB | - | cytopathic effect / MTT | 0.018 µg/mL |
| CO[C@@H]1[C@@H](OC(N)=O)[C@@H](O)[C@H](Oc2ccc3c(O)c(NC(=O)c4ccc(O)c(CC=C(C)C)c4)c(=O)oc3c2C)OC1(C)C | - | - | cytopathic effect / MTT | >109 µg/mL |
| Cc1cn([C@@H]2C=C[C@H](COC(=O)NCCCCNC(=O)OC[C@@H]3C=C[C@H](n4cc(C)c(=O)[nH]c4=O)O3)O2)c(=O)[nH]c1=O | IIIB | - | cytopathic effect / MTT | 26 µM |
| [Li+] | GUN1 | - | antigen | >1000 µg/mL |
| CC(C)(C)OC(=O)N1CCCN(C(=O)OC(C)(C)C)CCN(C(=O)OC(C)(C)C)CCCN(CCCCC(=O)Nc2ccn([C@H]3CC[C@@H](CO)O3)c(=O)n2)CC1 | - | - | syncytia | 0.05 µM |
| Cc1cn([C@H]2C[C@H](N=[N+]=[N-])[C@@H](CO)O2)c(=O)[nH]c1=O | Y181C (subtype B) | - | MTT | 0.0002 µg/mL |
| CC(C)(C)OC(=O)N1CCCN(C(=O)OC(C)(C)C)CCN(C(=O)OC(C)(C)C)CCCN(CCCCC(=O)OC[C@H]2O[C@@H](n3ccc(N)nc3=O)CS2)CC1 | - | - | syncytia | 10 µM |
| CO[C@@H]1[C@@H](OC(=O)c2ccc(C)[nH]2)[C@@H](O)C(Oc2ccc3c(O)c(NC(=O)c4c[nH]c(C(=O)Nc5c(O)c6ccc(OC7OC(C)(C)[C@H](OC)[C@@H](OC(=O)c8ccc(C)[nH]8)[C@H]7O)c(C)c6oc5=O)c4C)c(=O)oc3c2C)OC1(C)C | - | - | cytopathic effect / MTT | 1.5 µg/mL |
| O=C1CN([C@@H]2O[C@H](CO)[C@@H](O)[C@@H]2O)C(=O)CN1 | IIIB | - | cytopathic effect / MTT | >125 µg/mL |
| Cc1cn([C@H]2C=C[C@@H](CO)O2)c(=O)[nH]c1=O | IIIB Laboratory strain | - | cytopathic effect / trypan blue | 0.01 µM |
| CC(C)[C@H](NC(=O)OCc1ccccn1)C(=O)N[C@@H](Cc1ccccc1)C(=O)C(F)(F)CCc1ccccc1 | IIIB | - | - | 6.3 µM |
| CCN(C)C(=O)Oc1nsnc1-c1c(Cl)cccc1Cl | IIIB | - | cytopathic effect | 0.0367 µM |
| Cc1nc(COc2ccc(C[C@H](NC(=O)O[C@H]3CO[C@H]4OCC[C@H]43)[C@H](O)CN(CC(C)C)S(=O)(=O)c3ccc4c(c3)OCO4)cc2)cs1 | WT | - | - | 0.0011 µM |
| O=C1Nc2ccc(Cl)cc2S(=O)(=O)c2cn(CC=Cc3ccccc3)cc21 | IIIB | - | cytopathic effect / MTT | >200 µM |
| C[C@@]1(CO)CC[C@H](c2c[nH]c3c(N)ncnc23)C1 | - | - | - | 14.7 µM |
| CCOC(=O)c1c[nH]cc1S(=O)(=O)c1cc(Cl)ccc1N | IIIB | - | cytopathic effect / MTT | 1.3 µM |
| Fc1ccc(Cl)c(C2OCc3nc4ccccc4n32)c1 | IIIB | - | cytopathic effect | 7.9 µM |
| Cc1cn([C@H]2C[C@H](N=[N+]=[N-])[C@@H](CO)O2)c(=O)[nH]c1=O | - | - | - | 0.007 µg/mL |
| O=c1[nH]cnc2c1ncn2[C@H]1CC[C@@H](CO)O1 | HXB2-D294 (RT-P294S) | RT-P294S | RT activity | 6.9 µM |
| NOCc1c(Cl)cccc1Cl | IIIB | - | cytopathic effect / MTT | 1.67 µg/mL |
| Nc1nc(NC2CC2)c2ncn([C@H]3C=C[C@@H](CO)C3)c2n1 | NL4-3 | - | cytopathic effect / MTT | 1.41 µM |
| CCOC(=O)c1cn(C)cc1S(=O)(=O)c1cc(Cl)ccc1N | IIIB | - | cytopathic effect / MTT | 1.3 µM |
| c1cc(CN2CCCNCCNCCCNCC2)ccc1CN1CCCNCCNCCCNCC1 | NL4-3 | - | cytopathic effect / MTT | 0.02097 µM |
| c1cc(CN2CCCNCCNCCCNCC2)ccc1CN1CCCNCCNCCCNCC1 | BCF06 (subtype O) | - | MTT | 0.004 µg/mL |
| Cc1ccccc1Cn1cc2c(c1)S(=O)(=O)c1cc(Cl)ccc1NC2=O | IIIB | - | cytopathic effect / MTT | >200 µM |
| c1cc(CCNCCN2CCCCC2)ccc1CCNCCN1CCCCC1 | NL4-3 | - | MTT | 0.1 µg/mL |
| Fc1cccc(F)c1C1SCc2nc3ccccc3n21 | IIIB | - | cytopathic effect | 0.6 µM |
| CCOC(=O)c1cn(CC=C(C)C)cc1S(=O)(=O)c1cc(Cl)ccc1N | IIIB | - | cytopathic effect / MTT | 10 µM |
| CC(C)=CCN1Cc2cc(Cl)cc3[nH]c(=S)n(c23)C[C@@H]1C | - | RT-D67N K70R T215Y K219Q K103N | - | <3 µM |
| Cc1cn([C@H]2C[C@H](N=[N+]=[N-])[C@@H](COC(=O)C(=O)N3CCCC3C(=O)N[C@@H](Cc3ccccc3)C(=O)OCc3ccccc3)O2)c(=O)[nH]c1=O | IIIB | - | antigen | 0.022 µM |
| O=c1ccn([C@H]2C=C[C@@H](CO)O2)c(=O)[nH]1 | IIIB Laboratory strain | - | cytopathic effect / trypan blue | >125 µM |
| O=[N+]([O-])c1cccc2c1ncn2[C@@H]1O[C@H](CO)[C@@H](O)[C@@H]1O | IIIB | - | cytopathic effect / MTT | 79.4 µg/mL |
| CCN(C)C(=O)Oc1nsnc1-c1c(Cl)cccc1Cl | IIIB | - | MTT | 0.037 µM |
| Cc1cn([C@@H]2C=C[C@H](COC(=O)OC[C@H]3O[C@@H](n4cc(C)c(=O)[nH]c4=O)C[C@@H]3N=[N+]=[N-])O2)c(=O)[nH]c1=O | IIIB | - | cytopathic effect / MTT | 0.0063 µM |
| Cc1cn([C@H]2C[C@H](N=[N+]=[N-])[C@@H](CO)O2)c(=O)[nH]c1=O | IIIB | - | cytopathic effect / MTT | 0.0042 µg/mL |
| CC(C)[C@H](NC(=O)CNC(=O)OCc1ccccc1)C(=O)N[C@@H](Cc1ccccc1)C(=O)C(F)(F)CCc1ccccc1 | IIIB | - | - | 1.9 µM |
| Cc1ccnc2c1NC(=O)c1cccnc1N2C1CC1 | NL4-3 | - | cytopathic effect / MTT | 0.028 µM |
| C=C[C@@]1(CO)CO[C@H](n2ccc(=O)[nH]c2=O)C1 | - | - | - | 17.3 µg/mL |
| Cc1cn([C@H]2C[C@H](N=[N+]=[N-])[C@@H](COC(=O)C(=O)N3CCCC3C(=O)N[C@H](Cc3ccccc3)C(=O)OCc3ccccc3)O2)c(=O)[nH]c1=O | IIIB | - | antigen | 0.016 µM |
| CC(C)CN(C[C@@H](O)[C@H](Cc1ccccc1)NC(=O)O[C@H]1CCOC1)S(=O)(=O)c1ccc(N)cc1 | NL4-3 | - | cytopathic effect / MTT | 0.0286 µM |
| Cc1cn([C@H]2C[C@H](N=[N+]=[N-])[C@@H](CO)O2)c(=O)[nH]c1=O | IIIB | - | cytopathic effect / MTT | 0.01 µM |
| Cc1ccnc2c1NC(=O)c1cccnc1N2C1CC1 | - | RT-K103R V179D P225H | cytopathic effect / MTT | >30 µM |
| CN(C)C(=O)Oc1nsnc1-c1c(Cl)cccc1Cl | IIIB | - | cytopathic effect | 0.205 µM |
| O=C(OC[C@@H]1CC[C@H](n2ccc(=O)[nH]c2=O)O1)C(=O)N1CCCC1C(=O)N[C@H](Cc1ccccc1)C(=O)OCc1ccccc1 | IIIB | - | antigen | >160 µM |
| NOCc1ccccc1 | IIIB | - | cytopathic effect / MTT | >82.3 µg/mL |
| CC(C)=CCn1cc2c(c1)S(=O)(=O)c1cc(Cl)ccc1NC2=O | Clinical isolate | RT-Y181C | cytopathic effect / MTT | ≥30 µM |
| CC(C)Nc1cccnc1N1CCN(C(=O)c2cc3cc(NS(C)(=O)=O)ccc3[nH]2)CC1 | NL4-3 | - | cytopathic effect / MTT | 0.0136 µM |
| CC(=O)c1ccc(C)cc1NC(C(N)=O)c1c(Cl)cccc1Cl | IIIB | - | cytopathic effect / MTT | 0.011 µg/mL |
| CCCN(C)C(=O)Oc1nsnc1-c1c(Cl)cccc1Cl | IIIB | - | cytopathic effect | 0.0125 µM |
| CSc1ccccc1C1CCCN1C(=O)C(CC(C)C)NC(=O)NCc1ccc(N)cc1 | IIIB | - | ATP / luminescence | 13 µM |
| Nc1ccn([C@H]2CC[C@@H](CO)O2)c(=O)n1 | IIIB | - | cytopathic effect / MTT | 0.018 µg/mL |
| COC(=O)NCCC(C)(C)CN(C[C@@H](O)[C@H](Cc1ccccc1)NC(=O)O[C@H]1CO[C@H]2OCC[C@H]21)S(=O)(=O)c1ccc2c(c1)OCO2 | Multi-PI-resistant EP13 | PR-M46I L63P A71V V82F/L I84V | cytopathic effect / propidium iodide | 0.022 µM |
| O=c1ccn([C@H]2CC[C@@H](CO)O2)c(=O)[nH]1 | IIIB Laboratory strain | - | cytopathic effect / trypan blue | 48 µM |
| Cc1cn([C@@H]2C=C[C@H](COC(=O)OC[C@@H]3C=C[C@H](n4cc(C)c(=O)[nH]c4=O)O3)O2)c(=O)[nH]c1=O | IIIB | - | cytopathic effect / MTT | 0.24 µM |
| CC(C)(C)OC(=O)N1CCCN(C(=O)OC(C)(C)C)CCN(C(=O)OC(C)(C)C)CCCN(CCCCC(=O)OC[C@@H]2CC[C@H](n3ccc(N)nc3=O)O2)CC1 | - | - | syncytia | 0.5 µM |
| COC(=O)NCCCCCC(C)(C)CN(C[C@@H](O)[C@H](Cc1ccccc1)NC(=O)O[C@H]1CO[C@H]2OCC[C@H]21)S(=O)(=O)c1ccc2c(c1)OCO2 | Multi-PI-resistant EP13 | PR-M46I L63P A71V V82F/L I84V | cytopathic effect / propidium iodide | 0.046 µM |
| NOCc1ccc(Cl)cc1Cl | IIIB | - | cytopathic effect / MTT | 11.5 µg/mL |
| CNC(=O)NCCCC(C)(C)CN(C[C@@H](O)[C@H](Cc1ccccc1)NC(=O)O[C@H]1CO[C@H]2OCC[C@H]21)S(=O)(=O)c1ccc2c(c1)OCO2 | Multi-PI-resistant EP13 | PR-M46I L63P A71V V82F/L I84V | cytopathic effect / propidium iodide | 0.11 µM |
| COC[C@@H](c1ccc(C(F)(F)F)cc1)N1CCN(C2(C)CCN(C(=O)c3c(C)ncnc3C)CC2)C[C@@H]1C | NL4-3 | - | MTT | >5 µM |
| C[C@H](NC(=O)[C@H](CCCN=C(N)N)NC(=O)c1ccc(CNCc2ccccn2)cc1)c1cccc2ccccc12 | IIIB X4 laboratory isolate | - | cytopathic effect / MTT | 0.0193 µM |
| Nc1ccn([C@H]2C=C[C@@H](CO)O2)c(=O)n1 | IIIB Laboratory strain | - | cytopathic effect / trypan blue | 0.13 µM |

For reference, 5 entries again:

{"SMILES": "NOCc1ccc(Cl)cc1Cl", "strain": "IIIB", "method": "cytopathic effect / MTT", "result": "11.5 µg/mL"}
{"SMILES": "Cc1cn([C@@H]2C=C[C@H](COC(=O)OC[C@@H]3C=C[C@H](n4cc(C)c(=O)[nH]c4=O)O3)O2)c(=O)[nH]c1=O", "strain": "IIIB", "method": "cytopathic effect / MTT", "result": "0.24 µM"}
{"SMILES": "CC(C)[C@H](NC(=O)CNC(=O)OCc1ccccc1)C(=O)N[C@@H](Cc1ccccc1)C(=O)C(F)(F)CCc1ccccc1", "strain": "IIIB", "result": "1.9 µM"}
{"SMILES": "CO[C@@H]1[C@@H](OC(N)=O)[C@@H](O)[C@H](Oc2ccc3c(O)c(NC(=O)c4ccc(O)c(CC=C(C)C)c4)c(=O)oc3c2C)OC1(C)C", "method": "cytopathic effect / MTT", "result": ">109 µg/mL"}
{"SMILES": "O=c1[nH]cnc2c1ncn2[C@H]1CC[C@@H](CO)O1", "strain": "HXB2-D294 (RT-P294S)", "mutations": "RT-P294S", "method": "RT activity", "result": "6.9 µM"}